Reference: paper PMC6168691, “The amino‐terminal domain of Mycobacterium tuberculosis ClpB protein plays a crucial role in its substrate disaggregation activity” (FEBS Open Bio, 2018)
“And” between values parts separate entries of the source, which are not always exact repeats. Equal values may be shown once.

B1: Mycobacterium tuberculosis ClpB F140T (natural protein)
chain: not shown
B2: Mycobacterium tuberculosis ClpB, full length ([…]) (natural protein)
chain: not shown
notes: also called Mtb ClpB; WT ClpB
B3: Mycobacterium tuberculosis ClpB V141K (natural protein)
chain: not shown
B4: Mycobacterium tuberculosis ClpB L97D (natural protein)
chain: not shown
B5: Mycobacterium tuberculosis ClpB L101Q (natural protein)
chain: not shown

Key:
[1] = target: recombinant firefly luciferase (firefly); assay: cell-based or functional assay
[2] = target: κ-casein; assay: cell-based or functional assay
[3] = target: recombinant firefly luciferase (firefly); assay: cell-based or functional assay; remark: listed apart in the source
[4] = target: malate dehydrogenase from pig heart (pig); assay: cell-based or functional assay
[5] = target: Mycobacterium tuberculosis DnaK (Mycobacterium tuberculosis); assay: cell-based or functional assay
[6] = target: the molecule itself; assay: SEC; Superdex-200, buffer A; protein 0.2 mg/mL incubated with 5 mM ADP for 10 min at room temperature before loading
[7] = target: the molecule itself; assay: SEC; Superdex-200 (1 × 60 cm), buffer A (50 mM Tris/HCl pH 7.5, 100 mM KCl, 10% glycerol, 1 mM EDTA, 1 mM DTT); protein loaded at 0.2 mg/mL, no nucleotide

| Binder | reactivation of large aggregates of luciferase (heat-aggregated 15 min) with KJE; luminescence, in parenthesis percent of WT ClpB [1] [RLU s^−1] | reactivation of large aggregates of luciferase (heat-aggregated 15 min) without KJE; luminescence, in parenthesis percent of WT ClpB [1] [RLU s^−1] | reactivation of small aggregates of luciferase (heat-aggregated 5 min) with KJE; luminescence, in parenthesis percent of WT ClpB [1] [RLU s^−1] | reactivation of small aggregates of luciferase (heat-aggregated 5 min) without KJE; luminescence, in parenthesis percent of WT ClpB [1] [RLU s^−1] | stimulation of the ATPase activity of ClpB by κ‐casein (0.2 mg·mL^−1) [2] [fold] | prevention of heat aggregation of 0.3 μM luciferase at 43 °C (turbidity at 320 nm), 0.25 μM to 8-fold more ClpB, 5 mM ATP; luciferase kept unaggregated [3] [%] | reactivation of large aggregates of MDH by ClpB against ClpB∆N [4] [fold] | ATPase activity of ClpB with 1 μM DnaK against ClpB alone [5] [fold] | stoichiometry N [6] | stoichiometry N [7] |
| --- | --- | --- | --- | --- | --- | --- | --- | --- | --- | --- |
| B1 | 90000 | 37000 | 600000 | 280000 |  |  |  |  |  |  |
| B2 | 170000 | 82000 | 460000 | 400000 | > 3 | ~95 | ~2 | 2 | 4 | 6 and 2 |
| B3 | 140000 | 51000 | 430000 | 280000 |  |  |  |  |  |  |
| B4 | 70000 | 36000 | 390000 | 180000 |  |  |  |  |  |  |
| B5 | 80000 | 30000 | 490000 | 250000 |  |  |  |  |  |  |
